# According to the supplement of paper PMC6723410:
# Tested on: GUMC-403
# Assay: viability at highest tested concentration (max response) relative to DMSO (% of DMSO control); higher = less cytotoxic
# Details: library / dose series: MIPE library, 11-point 1:3 dilution; top concentration 46.1 µM; 48 h
# Outline: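 The value is viability at the highest tested concentration, expressed relative to vehicle control. Patient-derived GUMC-403 papilloma cells, grown by conditional reprogramming, were seeded at 700/well in 5 μL F + Y medium in 1536-well plates. After an overnight incubation at 37 °C, they received 23 nL of compound by pin tool for 48 h. Readout was CellTiter-Glo luminescence on a ViewLux, normalised to vehicle wells (100%) and empty wells (0%).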
smiles,measurement,value
CCOC(=O)C(=O)CBr,viability,114
